# In publication PMC8351955, “Targeting Mycobacterium tuberculosis response to environmental cues for the development of effective antitubercular drugs” (PLoS Biology, 2021):
# Values joined by “and” are separate entries in the source; they are usually repeats but may differ in a detail not shown here. Equal entries are not always repeated.
# Tests used:
# Mtb CDC1551 = test: Intrabacterial drug accumulation assay (LC-MS); conditions: for Accumulation in Mtb (Fig. S3A), individual replicates: Rep 1-3; for Accumulation in Mtb (Fig. S3A), Average: average of 3 replicates
# J774 cells = test: Intracellular drug accumulation assay in J774 cells (LC-MS); conditions: uninfected; for Accumulation in host macrophages (Fig. S3B), individual replicates: Rep 1-3; for Accumulation in host macrophages (Fig. S3B), Average: average of 3 replicates
SMILES,"Accumulation in Mtb (Fig. S3A), individual replicates (Mtb CDC1551; Control medium)","Accumulation in Mtb (Fig. S3A), Average (Mtb CDC1551; Control medium)","Accumulation in Mtb (Fig. S3A), individual replicates (Mtb CDC1551; High [Cl-])","Accumulation in Mtb (Fig. S3A), Average (Mtb CDC1551; High [Cl-])","Accumulation in host macrophages (Fig. S3B), individual replicates (J774 cells)","Accumulation in host macrophages (Fig. S3B), Average (J774 cells)"
"CCSc1ncc(CN2CCN(c3nc4ccccc4o3)CC2)cn1 [C6, 2-(4-((2-(ethylthio)pyrimidin-5-yl)methyl)piperazin-1-yl)benzo[d]oxazole]",25.7254 pmol/106 cells and 25.933 pmol/106 cells and 26.2031 pmol/106 cells,25.9538 pmol/106 cells,21.9514 pmol/106 cells and 21.0856 pmol/106 cells and 23.0216 pmol/106 cells,22.0195 pmol/106 cells,12.198 nmol/106 cells and 14.0886 nmol/106 cells and 12.6294 nmol/106 cells,12.972 nmol/106 cells
"COc1ncc(CN2CCN(c3nc4ccccc4o3)CC2)cn1 [JSF-4271, 2-(4-((2-methoxypyrimidin-5-yl)methyl)piperazin-1-yl)benzo[d]oxazole]",8.4476 pmol/106 cells and 9.657 pmol/106 cells and 10.6081 pmol/106 cells,9.571 pmol/106 cells,6.755 pmol/106 cells and 8.783 pmol/106 cells and 8.108 pmol/106 cells,7.882 pmol/106 cells,1.55 nmol/106 cells and 1.455 nmol/106 cells and 1.434 nmol/106 cells,1.48 nmol/106 cells
"CCSc1ccc(CN2CCN(c3nc4ccccc4o3)CC2)cc1 [JSF-4300, 2-(4-(4-(ethylthio)benzyl)piperazin-1-yl)benzo[d]oxazole]",37.8838 pmol/106 cells and 34.3335 pmol/106 cells and 35.5239 pmol/106 cells,35.9137 pmol/106 cells,31.0031 pmol/106 cells and 31.4711 pmol/106 cells and 27.9073 pmol/106 cells,30.1272 pmol/106 cells,51.325 nmol/106 cells and 53.8156 nmol/106 cells and 57.9784 nmol/106 cells,54.373 nmol/106 cells
